Measured values from several laboratories, pooled; numbers as filed in NIAID ChemDB.

Shared fields: target-level tests; agent: HIV-1; target: RNase H; read-out: IC50

ICn: concentration for n% inhibition. An empty or dashed field is not shown. Lines come from different laboratories, so protocols vary.

COc1ccc(N2CCN(NC(=O)c3ccc(C(F)(F)F)nc3Nc3cc(Cl)ccc3C)CC2)cc1 ; method: RNase H / absorbance ; value: 20.8 µM
O=C(Nc1sc2c(c1C(=O)O)CCCCC2)c1ccc(Cl)cc1 ; method: RNase H / fluorescence ; value: >100 µM
Cc1nc2c3c(sc2c(=O)o1)CCCCC3 ; method: RNase H / fluorescence ; value: 4.86 µM
O=C(/C=C/c1cccn1Cc1ccc(F)cc1)CC(=O)C(=O)O ; changes: N474A ; method: substrate cleavage / fluorescence ; value: >100 µM
O=C(CCc1ccc(F)cc1)Nc1sc2c(c1C(=O)Nc1ccccn1)CCCCC2 ; method: RNase H / fluorescence ; value: 14.5 µM
COc1ccccc1NC(=O)c1c(N)sc2c1CCCCC2 ; method: RNase H / fluorescence ; value: 91.3 µM
CCOC(=O)C(=O)CC(=O)/C=C/c1cccn1Cc1ccc(C)cc1C ; changes: Q475A ; method: substrate cleavage / fluorescence ; value: >100 µM
O=c1oc(-c2ccccc2)nc2sc3c(c12)CCCCC3 ; method: RNase H / fluorescence ; value: 20.7 µM
Cc1ccc(Cl)cc1Nc1nc(C(F)(F)F)ccc1C(=O)NN1CCN(c2cccc(Cl)c2)CC1 ; changes: V108A ; method: RNase H / absorbance ; value: >100 µM
Cc1ccc(Cn2cccc2/C=C/C(=O)CC(=O)C(=O)O)c(C)c1 ; changes: R448A ; method: substrate cleavage / fluorescence ; value: 27 µM
COc1ccccc1-c1nc2sc3c(c2c(=O)o1)CCCCC3 ; method: RNase H / fluorescence ; value: 100 µM
O=C(Nc1sc2c(c1C(=O)Nc1ccccn1)CCCCC2)c1ccc(Cl)cc1Cl ; method: RNase H / fluorescence ; value: 12.24 µM
O=c1oc(-c2ccccc2F)nc2sc3c(c12)CCCCC3 ; method: RNase H / fluorescence ; value: 34.9 µM
COc1cccc(Cn2cccc2/C=C/C(=O)CC(=O)C(=O)O)c1 ; changes: R448A ; method: substrate cleavage / fluorescence ; value: 88 µM
O=C(Cc1ccccc1F)Nc1sc2c(c1C(=O)Nc1ccccn1)CCCCC2 ; method: RNase H / fluorescence ; value: >50 µM

For reference, 2 entries again:

SMILES	changes	method	value
O=C(Nc1sc2c(c1C(=O)O)CCCCC2)c1ccc(Cl)cc1	-	RNase H / fluorescence	>100 µM
COc1ccc(N2CCN(NC(=O)c3ccc(C(F)(F)F)nc3Nc3cc(Cl)ccc3C)CC2)cc1	-	RNase H / absorbance	20.8 µM